# According to article PMC4257840 (Journal of Medicinal Chemistry, 2014):
# Amino acid sequences for entries named in this document (tags omitted). Residues count along the entry.
# UniProt P08176, 99-320 limits assumed: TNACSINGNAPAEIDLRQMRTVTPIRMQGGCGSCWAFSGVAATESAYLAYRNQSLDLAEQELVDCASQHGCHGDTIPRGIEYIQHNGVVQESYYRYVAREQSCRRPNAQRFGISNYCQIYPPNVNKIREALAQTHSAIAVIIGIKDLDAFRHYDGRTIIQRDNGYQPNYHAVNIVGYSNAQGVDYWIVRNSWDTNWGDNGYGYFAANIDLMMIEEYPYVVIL
# Molecular target: Der p 1 (Dermatophagoides pteronyssinus, UniProt P08176)
smiles,measurement,setting,value
CC(NC(=O)C(Cc1ccccc1)NC(=O)c1ccccc1)C(=O)NCC(=O)C(=O)NCc1ccccc1 (centres unmarked),drop in Der p 1 potency on removal of the P1 substituent,,10–20 fold
same,IC50,"read-out: IC50 versus Der p 1, tested as mixed diastereomers",170 nM
